Measured data: PubChem BioAssay AID1259414 (Drosophila RNAi Screening Center, 2018)
The deposit covers about 24,000 reagents; shown is a random part of those with a known target gene and a result. In the full data, about 1,210 (5%) are marked active. 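Inactive calls also include excluded dsRNAs with several or no targets, genes unexpressed in JW18, and well A1, regardless of score.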 The numbers tell different reagents against one gene apart. A plus sign joins genes that one reagent is predicted to hit. Reagent sequences are not shown.

Screen: 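Host factors increasing or decreasing Wolbachia levels in cultured fly cells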 (primary screen)
Cell system: Drosophila JW18 cells infected with Wolbachia
Reagents: long dsRNA against Drosophila genes, 0.25 µg dsRNA per well of a 384-well plate
Timing: 5 days
Conditions: cells persistently infected with Wolbachia before knock-down; no added drug
Measurement: 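Imaged fluorescence in situ signal for Wolbachia 23S rRNA per DAPI-counted host cell, given as a robust z-score within each plate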
Scale: Wolbachia per cell robust z: higher = more Wolbachia per host cell than the plate typical
Hit rule: 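Hit when robust z is 1.5 or more, or -1.5 or less, in at least two of three replicates; excludes dsRNAs with several or no targets, genes not expressed in JW18 and well A1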

gene	dsRNA no.	Wolbachia per cell robust z, rep 1	Wolbachia per cell robust z, rep 2	Wolbachia per cell robust z, rep 3	Call
CG31262	1	0.104	-0.619	0.729	inactive
CG32037	1	1.36	0.659	-0.0479	inactive
Alp13 (Alkaline phosphatase 13)	1	-0.214	1.25	-0.143	inactive
CG33476	1	-1.26	-1.29	-0.412	inactive
drd (drop dead)	1	0.663	1.34	0.308	inactive
drd (drop dead)	2	0.718	0.833	0.794	inactive
drd (drop dead)	3	-0.76	-0.57	-0.0301	inactive
Mos (Mos oncogene)	1	-0.715	0.187	0.294	inactive
Ir75c (Ionotropic receptor 75c)	1	-0.385	-0.561	-0.263	inactive
Sf3b3 (Splicing factor 3b subunit 3)	1	1.32	2.07	-4.87	inactive
bonsai	1	-1.61	0.203	-0.0623	inactive
bonsai	2	0.744	-0.0818	0.532	inactive
CG30411	1	-1.2	-1.99	-0.861	inactive
CG30411	2	1.54	0.215	2.06	inactive
Vang (Van Gogh)	1	1.46	1.01	0.783	inactive
CG43901	1	-4.38	0.797	-1.08	inactive
CG43901	2	0.486	-0.689	-1.38	inactive
CG43901	3	-1.52	0.548	1.21	inactive
CG43901	4	-0.428	-0.0737	0.115	inactive
CG14963	1	-0.272	0.733	-0.452	inactive
ND-B14 (NADH dehydrogenase (ubiquinone) B14 subunit)	1	-0.679	-0.128	-3.95	inactive
ND-B14 (NADH dehydrogenase (ubiquinone) B14 subunit)	2	0.779	-0.267	0.859	inactive
CG13930	1	-4.44	-0.836	-1.47	inactive
CG13930	2	0.285	-1.48	1.2	inactive
Brca2 (BRCA2, DNA repair associated)	1	-1.77	0.764	1.65	inactive
Brca2 (BRCA2, DNA repair associated)	2	-0.367	0.402	1.07	inactive
Dnaaf3 (Dynein axonemal assembly factor 3)	1	0.368	-0.159	-0.468	inactive
Lcp65Ab1 + Lcp65Ab2	1	-0.0703	-0.428	0.38	inactive
Lcp65Ab1 + Lcp65Ab2	2	0.473	0.408	-6.58	inactive
Uros1 (Uroporphyrinogen III synthase 1)	1	0.453	0.000717	-0.0771	inactive
Uros1 (Uroporphyrinogen III synthase 1)	2	-0.721	0.214	0.24	inactive
CG31050	1	-1.46	-2.81	1.59	inactive
CR40190 (pseudo)	1	1.28	-0.816	0.345	inactive
CG10345	1	-1.58	-0.862	-4.63	inactive
CG43673 + CG43672	1	-0.688	-0.0389	-4.02	inactive
CG34220	1	-2.31	0.659	-1.65	active
CG17751	1	-4.67	-0.252	-0.376	inactive
CG17751	2	0.297	-0.0611	0.272	inactive
CG17751	3	-0.292	0.535	0.567	inactive
CG14929	1	-0.523	-0.782	0.292	inactive
Or2a (Odorant receptor 2a)	1	0.797	-1.29	-0.185	inactive
Mpp6 (M-phase phosphoprotein 6)	1	1.16	1.42	1.04	inactive
Mpp6 (M-phase phosphoprotein 6)	2	-0.0761	-0.414	0.0782	inactive
AGO1 (Argonaute-1)	1	-0.0129	1.02	0.926	inactive
AGO1 (Argonaute-1)	2	0.821	1.01	0.0515	inactive
Gr63a (Gustatory receptor 63a)	1	-0.415	0.351	-0.00378	inactive
Bre1	1	1.06	1.15	0.702	inactive
AIMP3 (aaRS-interacting multifunctional protein 3)	1	1.32	0.488	0.474	inactive
AIMP3 (aaRS-interacting multifunctional protein 3)	2	0.542	-1.65	0.488	inactive
CG32121	1	-0.744	-0.569	-2.38	inactive
Fpgs1 (Folylpolyglutamate synthase 1)	1	0.532	0.629	0.119	inactive
Fpgs1 (Folylpolyglutamate synthase 1)	2	1.34	0.427	0.897	inactive
CG15549	1	-0.619	-0.775	-5.58	inactive
acs (arcus)	1	-0.284	-2.35	-2.77	inactive
acs (arcus)	2	-0.0882	0.492	0.547	inactive
CR33317 (pseudo)	1	-0.25	1.02	0.881	inactive
CG7432	1	-5.48	-5.19	0.0751	inactive
CG15042	1	-2.4	-0.3	-1.41	inactive
croc (crocodile)	1	0.157	1.24	1.97	inactive
croc (crocodile)	2	0.708	-0.957	-0.141	inactive
CG6094	1	0.219	-0.103	0.253	inactive
CG6094	2	0.486	0.652	-0.997	inactive
CG6094	3	-0.974	-0.858	-0.0324	inactive
Prosbeta2R2 (Proteasome beta2 subunit-related 2)	1	0.828	-1.72	1.19	inactive
Cec2 (Cecropin 2)	1	-1.4	-0.0945	-1.58	inactive
Cec2 (Cecropin 2)	2	-0.675	-1.88	-0.99	inactive
Orcokinin	1	0.15	-0.033	0.306	inactive
Obp58d (Odorant-binding protein 58d)	1	0.931	1.2	1.17	inactive

10 entries from above, limited to “Wolbachia per cell robust z, rep 3”.
CG43901 #3 = 1.21
CG43901 #4 = 0.115
CG14963 = -0.452
ND-B14 (NADH dehydrogenase (ubiquinone) B14 subunit) #1 = -3.95
ND-B14 (NADH dehydrogenase (ubiquinone) B14 subunit) #2 = 0.859
CG13930 #1 = -1.47
CG13930 #2 = 1.2
Brca2 (BRCA2, DNA repair associated) #1 = 1.65
Brca2 (BRCA2, DNA repair associated) #2 = 1.07
Dnaaf3 (Dynein axonemal assembly factor 3) = -0.468
